This passage reports koff and kon results from paper PMC10315472.

Experiment [1] addresses emorisin (Emergomyces orientalis). Nature of the experiment: SPR. (In general: Surface plasmon resonance follows binding to a sensor surface in real time, without labels.)
In the next experiment the target is AMSIN (actinomyces). Nature of the experiment: SPR.

In the case of “wild-type SARS-CoV-2 Spike receptor-binding domain (from UniProt P0DTC2 319-527) (domain or fragment)”, the dissociation rate constant (koff) is 0.045 s⁻¹ in experiment [1] and 0.00219 s⁻¹ with AMSIN (actinomyces). Besides, the kon in experiment [1] was 5.92e+06 M⁻¹ s⁻¹; in the experiment with AMSIN (actinomyces), 11300 M⁻¹ s⁻¹.

By koff is commonly meant a measure of how fast the partners let go of each other. The low end stands for a long-lived complex, the high end for a short-lived complex. For orientation: kon means the second-order rate constant of association. The low end stands for slower complex formation, the high end for faster complex formation.
